Anti-infective test results gathered from many reports (values: NIAID ChemDB through PubChem).

ECn is the concentration giving n% inhibition of infection, replication or growth. ICn: concentration for n% inhibition. MIC50, MIC90 and the like: level of inhibition, or share of isolates inhibited. Inhibition is in % at the dose shown (toxicity tests: loss of growth or viability). Rows are shuffled and stem from different studies.

Oc1ccc(O)c(C=Nc2ccccc2O)c1 ; kind: culture ; species: Cryptococcus neoformans ; strain: C-3-1 ; endpoint: MIC99 ; result: 5.7 µg/mL
O=S(=O)(O)c1cccc2c(O)cccc12 ; kind: culture ; species: Herpes simplex virus ; cell line: Human conjunctiva cells ; read by: cytopathic effect ; endpoint: inhibition ; tested at: 50 µg/mL ; result: 0%
COc1cc(Cc2sc3nc(N)nc(N)c3c2C)cc(OC)c1OC ; kind: target ; species: Cryptosporidium parvum ; strain: TYPE 2 ; target: Dihydrofolate reductase ; endpoint: IC50 ; result: 2.3 µM
COc1ccc(N2CCN(c3cncc(-c4cccc(OC)c4OC)n3)CC2)cc1OC ; kind: target ; species: Cytomegalovirus ; target: UL97 kinase ; endpoint: inhibition ; tested at: 10 µM ; result: >15%
O=S(=O)([O-])c1ccc2c(NS(=O)(=O)c3ccccc3)cc(S(=O)(=O)[O-])cc2c1 ; kind: culture ; species: Herpes simplex virus ; cell line: Human amnion AV3 cells ; read by: cytopathic effect ; endpoint: inhibition ; tested at: 5 µg/mL ; result: 0%
Oc1ccccc1N=Cc1ccccc1 ; kind: culture ; species: Cryptococcus neoformans ; strain: 5396 ; endpoint: MIC99 ; result: 5.7 µg/mL
CC(=O)N[C@H]1[C@H]([C@H](O)[C@H](O)CO)OC(C(=O)O)=C[C@@H]1N=C(N)N ; kind: culture ; species: Influenza A virus ; strain: Influenza A/Washington/05/96 (H3N2) ; cell line: MDCK ; read by: visual reading ; endpoint: EC50 ; result: 0.03 µM
O=C(Nc1c(S(=O)(=O)[O-])cc2cc(S(=O)(=O)[O-])cc(O)c2c1O)c1ccccc1 ; kind: culture ; species: Adenovirus ; strain: TYPE 3 ; cell line: Human amnion AV3 cells ; read by: cytopathic effect ; endpoint: inhibition ; tested at: 50 µg/mL ; result: 83%
COc1cc(-c2sc3nc(N)nc(N)c3c2C)cc(OC)c1OC ; kind: target ; species: Cryptosporidium parvum ; strain: TYPE 1 ; target: Dihydrofolate reductase ; endpoint: IC50 ; result: >10 µM
COc1ccc(-c2cncc(N3CCC(c4ccccc4)CC3)n2)cc1F ; kind: target ; species: Cytomegalovirus ; target: UL97 kinase ; endpoint: inhibition ; tested at: 10 µM ; result: >15%
C=CCc1ccc(OC)c(OC)c1 ; kind: culture ; species: Candida parapsilosis ; strain: 2559 ; read by: turbidity ; endpoint: MIC90 ; result: 345 µg/mL
O=C(O)c1cc(S(=O)(=O)[O-])ccc1O ; kind: culture ; species: Herpes simplex virus ; cell line: Human amnion AV3 cells ; read by: cytopathic effect ; endpoint: inhibition ; tested at: 10 µg/mL ; result: 0%
CCOC(=O)c1ccc(OCCC2CCN(c3ccc(C)nn3)CC2)cc1 ; kind: culture ; species: Rhinovirus ; strain: 50-525-CV54 (ICAM-1 receptor group 85) ; cell line: KB ; read by: neutral red ; endpoint: EC50 ; result: 0.054 µM
Oc1ccccc1N=Cc1ccc(O)c(O)c1O ; kind: culture ; species: Cryptococcus neoformans ; strain: LMM 820 ; endpoint: MIC99 ; result: 11.3 µg/mL
Fc1ccc(N2CCCCC2)c(NC(=S)c2ccncc2)c1 ; kind: host protein ; target: Snk ; read by: kinase activity ; endpoint: inhibition ; tested at: 10 µM ; result: 8%
Nc1nc(N)c2c(n1)CCC(Cc1ccc(OC(F)(F)F)cc1)C2 ; kind: target ; species: Cryptosporidium parvum ; strain: TYPE 2 ; target: Dihydrofolate reductase ; endpoint: IC50 ; result: 0.53 µM
CCOC(=O)/C=C/[C@H](C[C@@H]1CCNC1=O)NC(=O)[C@@H](CC(=O)[C@@H](NC(=O)c1cc(C)on1)C(C)C)Cc1ccc(F)cc1 ; kind: culture ; species: Rhinovirus ; strain: Isolate 40 ; cell line: OHIO HELA-I ; read by: cytopathic effect / visual reading ; endpoint: EC50 ; result: 0.01 µg/mL
Cc1ccc(C(=O)Nc2ccc(S(=O)(=O)O)c3cc(S(=O)(=O)O)cc(S(=O)(=O)O)c23)cc1NC(=O)c1cccc(NC(=O)Nc2cccc(C(=O)Nc3cc(C(=O)Nc4ccc(S(=O)(=O)O)c5cc(S(=O)(=O)O)cc(S(=O)(=O)O)c45)ccc3C)c2)c1 ; kind: culture ; species: Herpes simplex virus ; cell line: Human conjunctiva cells ; read by: cytopathic effect ; endpoint: inhibition ; tested at: 5 µg/mL ; result: 10%
COc1cc(N(C)Cc2ccc3nc(N)nc(N)c3n2)cc(OC)c1OC ; kind: target ; species: Cryptosporidium parvum ; strain: TYPE 1 ; target: Dihydrofolate reductase ; endpoint: IC50 ; result: 0.075 µM
c1ccc2cc(-c3cncc(N4CCN(CCN5CCCC5)CC4)n3)ccc2c1 ; kind: target ; species: Cytomegalovirus ; target: UL97 kinase ; endpoint: IC50 ; result: <1 µM
COc1ccc(OC)c(CCc2cc3c(N)nc(N)nc3s2)c1 ; kind: target ; species: Cryptosporidium parvum ; strain: TYPE 2 ; target: Dihydrofolate reductase ; endpoint: IC50 ; result: >10 µM
O=S(=O)([O-])c1cc(O)c2ccccc2c1 ; kind: culture ; species: Adenovirus ; strain: TYPE 3 ; cell line: Human embryonic lung cells ; read by: cytopathic effect ; endpoint: inhibition ; tested at: 50 µg/mL ; result: 0%
COc1ccc(CC2CCc3nc(N)nc(N)c3C2)cc1 ; kind: target ; species: Cryptosporidium parvum ; strain: TYPE 2 ; target: Dihydrofolate reductase ; endpoint: IC50 ; result: 1.1 µM
CCOC(=O)c1cnc(NCCCCNc2ccnc3cc(Cl)ccc23)nc1C ; kind: culture ; species: Cryptococcus neoformans ; strain: LMM 820 ; endpoint: MIC99 ; result: 8 µg/mL
COc1cc(N(C)Cc2csc3nc(N)nc(N)c23)cc(OC)c1OC ; kind: target ; species: Cryptosporidium parvum ; strain: TYPE 2 ; target: Dihydrofolate reductase ; endpoint: IC50 ; result: >10 µM
Cc1nc(C)c(N2CCN(c3ccncc3)CC2)nc1-c1cc2ccccc2s1 ; kind: target ; species: Cytomegalovirus ; target: UL97 kinase ; endpoint: IC50 ; result: <100 µM
COc1cc(CCCN2CCc3nc(N)nc(N)c3C2)cc(OC)c1OC ; kind: target ; species: Cryptosporidium parvum ; strain: TYPE 2 ; target: Dihydrofolate reductase ; endpoint: IC50 ; result: >10 µM
CSc1ccc(-c2cncc(N3CCN(c4cccc(C)c4)C(C)C3)n2)cc1 ; kind: target ; species: Cytomegalovirus ; target: UL97 kinase ; endpoint: IC50 ; result: <100 µM

The last 4 rows once more:

COc1cc(N(C)Cc2csc3nc(N)nc(N)c23)cc(OC)c1OC ; kind: target ; species: Cryptosporidium parvum ; strain: TYPE 2 ; target: Dihydrofolate reductase ; endpoint: IC50 ; result: >10 µM
Cc1nc(C)c(N2CCN(c3ccncc3)CC2)nc1-c1cc2ccccc2s1 ; kind: target ; species: Cytomegalovirus ; target: UL97 kinase ; endpoint: IC50 ; result: <100 µM
COc1cc(CCCN2CCc3nc(N)nc(N)c3C2)cc(OC)c1OC ; kind: target ; species: Cryptosporidium parvum ; strain: TYPE 2 ; target: Dihydrofolate reductase ; endpoint: IC50 ; result: >10 µM
CSc1ccc(-c2cncc(N3CCN(c4cccc(C)c4)C(C)C3)n2)cc1 ; kind: target ; species: Cytomegalovirus ; target: UL97 kinase ; endpoint: IC50 ; result: <100 µM